Measured values from several laboratories, pooled; numbers as filed in NIAID ChemDB.

All rows: tests in culture; agent: Herpes simplex virus 1

ECn: concentration that inhibits the pathogen or its effect by n%. An empty or dashed field is not shown. Neighbouring rows are from separate reports.

SMILES	strain or isolate	endpoint	cell line	read by	result
CC1CC(C)(O)CC(C(O)CC2CC(=O)NC(=O)C2)C1=O	KOS	EC50	HeLa	cytopathic effect	>200 µg/mL
Nc1nc2c(ncn2C[C@H]2CC[C@@H](CO)C2)c(=O)[nH]1	KOS	EC50	E6SM	cytopathic effect	>400 µg/mL
O=C(O)CP(=O)(O)O	90155	EC50	SIRC	plaque count	<100 µM
Nc1ncnc2c1ncn2C[C@@H](CO)OCP(=O)(O)O	KOS	EC50	VERO	cytopathic effect	8.13 µg/mL
O=C(O)P(=O)(O)O	PMEA-resistant-1	EC90	HeLa	virus yield	3000 µM
CC1(C)OC[C@]2(C)[C@@H](CC[C@@]3(C)[C@H]2CC[C@H]2C[C@@H]4CC23CC[C@@]4(C)O)O1	-	EC50	VERO	plaque count	>500 µM
NC[C@@H]1O[C@H](O[C@H]2[C@@H](O)[C@H](O[C@@H]3[C@@H](O)[C@H](N)C[C@H](N)[C@H]3O[C@H]3O[C@H](CO)[C@@H](O)C[C@H]3N)O[C@@H]2CO)[C@H](N)[C@@H](O)[C@@H]1O[C@H]1O[C@H](CO)[C@@H](O)[C@H](O)[C@@H]1O	KOS	EC50	HeLa	cytopathic effect	>200 µg/mL
C[C@@]1(CO)[C@H](O)CC[C@@]2(C)[C@H]1CC[C@H]1C[C@@H]3C[C@@]12CC[C@]31CO1	-	EC50	-	plaque count	1.3 µM
Nc1ncnc2c1ncn2CCOCP(=O)(O)O	PFA-resistant-5	EC90	HeLa	virus yield	370 µM
CC[C@H]1[C@@H]2C[C@H]3[C@@H]4N(C)c5ccccc5[C@]45C[C@@H]([C@@H]2[C@H]5O)N3[C@@H]1O	KOS	EC50	HeLa	cytopathic effect	>200 µg/mL
CC1(C)OC[C@]2(C)[C@@H](CC[C@@]3(C)[C@H]2CC[C@H]2C[C@@H]4[C@H](O)C23CCC42OC(C)(C)O2)O1	-	EC50	VERO	plaque count	>500 µM
CC[C@H]1OC(=O)[C@H](C)[C@@H](OC2CC(C)(OC)C(O)C(C)O2)C(C)[C@@H](OC2OC(C)CC(N(C)C)C2O)[C@](C)(O)C[C@@H](C)C(=O)[C@H](C)[C@@H](O)[C@H]1C	KOS	EC50	HeLa	cytopathic effect	>200 µg/mL
Cc1ccc2c(c1)COP(=O)(OCCOCn1cnc3c(=O)[nH]c(N)nc31)O2	TK-deficient acyclovir-resistant	EC50	E6SM	cytopathic effect	0.95 µg/mL
Cc1ncc([N+](=O)[O-])n1CCO	KOS	EC50	HeLa	cytopathic effect	>200 µg/mL
O=c1[nH]c(=O)n([C@H]2C[C@H](O)[C@@H](CO)O2)cc1CCCl	TK-	EC50	VERO	cytopathic effect	>34.2 µM
Nc1nc2c(ncn2COCCOP2(=O)OCc3ccccc3O2)c(=O)[nH]1	TK-deficient acyclovir-resistant	EC50	E6SM	cytopathic effect	4.8 µg/mL
C[C@@]1(O)[C@H](O)CC[C@@]2(C)[C@H]1CC[C@H]1C[C@@H]3CC12CC[C@]3(O)CSCc1ccccc1	-	EC50	-	plaque count	>500 µM
Cc1cccc2c1OP(=O)(OCCOCn1cnc3c(=O)[nH]c(N)nc31)OC2	TK-deficient acyclovir-resistant	EC50	E6SM	cytopathic effect	5.3 µg/mL
C[C@]12CCC3OC[C@@]3(C)[C@@H]1CC[C@H]1C[C@@H]3CC12CC[C@]3(O)CO	-	EC50	VERO	plaque count	>500 µM
O=C(OCc1ccccc1)P(=O)(O)OC[C@H]1O[C@@H](n2cc(CCCl)c(=O)[nH]c2=O)C[C@@H]1O	TK-	EC50	VERO	cytopathic effect	>20.5 µM
C[C@@]1(CO)[C@H](O)CC[C@@]2(C)[C@H]1CC[C@H]1C[C@@H]3C[C@@]12CC[C@]3(O)CO	-	EC50	-	plaque count	1.2 µM
O=C(O)P(=O)(O)O	B2006 (TK-)	EC50	-	cytopathic effect	28 µg/mL
CC1(C)[C@@H]2CC[C@@]1(C)C(=O)[C@H]2Br	KOS	EC50	HeLa	cytopathic effect	>200 µg/mL
Nc1nc(Cl)c2nnn(C[C@H]3CC[C@@H](CO)C3)c2n1	KOS	EC50	E6SM	cytopathic effect	>200 µg/mL
CC1(C)OC[C@]2(C)[C@@H](CC[C@@]3(C)[C@H]2CC[C@H]2C[C@@H]4CC23CCC4=O)O1	-	EC50	VERO	plaque count	>500 µM
Nc1nc2c(ncn2COCCO)c(=O)[nH]1	KOS	EC50	E6SM	cytopathic effect	0.28 µg/mL
O=C(O)P(=O)(O)O	TK-	EC50	VERO	cytopathic effect	>79.4 µM
O=C(O)P(=O)(O)O	11-Aug	EC50	SIRC	plaque count	<500 µM
CCOC(=O)P(=O)(O)OC[C@H]1O[C@@H](n2cc(CCCl)c(=O)[nH]c2=O)C[C@@H]1O	BRAND	EC50	VERO	cytopathic effect	>23.4 µM
O=c1[nH]c(=O)n([C@H]2C[C@H](O)[C@@H](CO)O2)cc1/C=C/Br	B2006 (TK-)	EC50	E6SM	cytopathic effect	70 µg/mL
C=C1C(=O)CCC1C(=O)O	KOS	EC50	HeLa	cytopathic effect	>200 µg/mL
Nc1nc(N)c2nnn(C[C@H]3CC[C@@H](CO)C3)c2n1	VMW1837 (TK-)	EC50	E6SM	cytopathic effect	>400 µg/mL
CCCC1CCC(=C2C(=O)CCC2=O)O1	KOS	EC50	HeLa	cytopathic effect	>200 µg/mL
Nc1nc(NC2CC2)c2ncn([C@H]3C=C[C@@H](CO)C3)c2n1	KOS	EC50	E6SM	cytopathic effect	≥40 µg/mL
CO[C@@H]1[C@@H](OC(N)=O)[C@@H](O)[C@H](Oc2ccc3c(O)c(NC(=O)c4ccc(O)c(CC=C(C)C)c4)c(=O)oc3c2C)OC1(C)C	KOS	EC50	HeLa	cytopathic effect	>200 µg/mL
Nc1nc(Cl)c2ncn(C[C@H]3CC[C@@H](CO)C3)c2n1	KOS	EC50	E6SM	cytopathic effect	>1 µg/mL

A second listing of 2 rows from above:

{"SMILES": "O=C(O)P(=O)(O)O", "strain or isolate": "TK-", "endpoint": "EC50", "cell line": "VERO", "read by": "cytopathic effect", "result": ">79.4 µM"}
{"SMILES": "CC[C@H]1OC(=O)[C@H](C)[C@@H](OC2CC(C)(OC)C(O)C(C)O2)C(C)[C@@H](OC2OC(C)CC(N(C)C)C2O)[C@](C)(O)C[C@@H](C)C(=O)[C@H](C)[C@@H](O)[C@H]1C", "strain or isolate": "KOS", "endpoint": "EC50", "cell line": "HeLa", "read by": "cytopathic effect", "result": ">200 µg/mL"}